Record: PubChem BioAssay AID624099 (ICCB-Longwood, 2012)

Test: 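Host factors E2 relies on to silence an HPV18 LCR reporter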 (primary screen)
Cells: human C33A cervical carcinoma cells (HPV-negative) stably expressing BPV1 E2 and an HPV18 LCR luciferase reporter
Knock-down reagent: siRNA pool against human genes, 40 nM
Timing: 72 h
Detection: 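Per-well luciferase luminescence, z-scored on each plate against the plate mean and SD with control wells left out, then averaged across three replicate plates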
Reading the numbers: mean z-score and z-score: higher = stronger reporter signal, weaker E2 silencing
Call rule: 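Hit if mean z-score reaches 2 and two or more of three replicate z-scores also reach 2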
In all, the deposit lists about 21,000 reagents; shown is a part drawn at random. Of all reagents, 497 (2.4%) were called active. 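Higher z means weaker E2 silencing; only reporter increases were scored, and knock-downs that hurt cell survival may mask genuine repressor factors.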 A number with no mark means an inactive call.

GLRX (glutaredoxin) [SID134316896]
- mean z-score: 0.69
- z-score, replicate A: 0.59
- z-score, replicate B: 0.95
- z-score, replicate C: 0.55

FAM184B (family with sequence similarity 184 member B) [SID134325997]
- mean z-score: 1.12
- z-score, replicate A: 1.66
- z-score, replicate B: 0.95
- z-score, replicate C: 0.74

EFCAB8 (EF-hand calcium binding domain 8) [SID134329050]
- mean z-score: -2.24
- z-score, replicate A: -1.97
- z-score, replicate B: -2.25
- z-score, replicate C: -2.51

PASD1 (PAS domain containing repressor 1) [SID134322328]
- mean z-score: -0.93
- z-score, replicate A: -1.48
- z-score, replicate B: -0.92
- z-score, replicate C: -0.39

MLEC (malectin) [SID134324035]
- mean z-score: -0.62
- z-score, replicate A: -0.82
- z-score, replicate B: -0.54
- z-score, replicate C: -0.49

TSLP (thymic stromal lymphopoietin) [SID134317885]
- mean z-score: 1.1
- z-score, replicate A: 0.5
- z-score, replicate B: 1.23
- z-score, replicate C: 1.56

ABCB5 (ATP binding cassette subfamily B member 5) [SID134312351]
- mean z-score: 0.31
- z-score, replicate A: 0.64
- z-score, replicate B: 0.21
- z-score, replicate C: 0.09

OAZ3 (ornithine decarboxylase antizyme 3) [SID134317573]
- mean z-score: -0.81
- z-score, replicate A: -0.73
- z-score, replicate B: -0.81
- z-score, replicate C: -0.89

SLC2A11 [SID134312557]
- mean z-score: 0.03
- z-score, replicate A: -0.28
- z-score, replicate B: 0.09
- z-score, replicate C: 0.27

RAMP1 (receptor activity modifying protein 1) [SID134310036]
- mean z-score: 1.52
- z-score, replicate A: 1.79
- z-score, replicate B: 1.41
- z-score, replicate C: 1.36

TIFA (TRAF interacting protein with forkhead associated domain) [SID134319198]
- mean z-score: -1.17
- z-score, replicate A: -0.95
- z-score, replicate B: -0.95
- z-score, replicate C: -1.61

SMU1 (SMU1 DNA replication regulator and spliceosomal factor) [SID134324736]
- mean z-score: -0.9
- z-score, replicate A: -1.14
- z-score, replicate B: -1.02
- z-score, replicate C: -0.55

KRT6B (keratin 6B) [SID134316412]
- mean z-score: 1.14
- z-score, replicate A: 1.01
- z-score, replicate B: 1.11
- z-score, replicate C: 1.31

LOC402696 (retired record) [SID134327926]
- mean z-score: 0.65
- z-score, replicate A: 0.57
- z-score, replicate B: 0.58
- z-score, replicate C: 0.81

AFG2A (AAA ATPase AFG2A) [SID134313291]
- mean z-score: -0.57
- z-score, replicate A: -0.92
- z-score, replicate B: -0.32
- z-score, replicate C: -0.48

PADI1 (peptidyl arginine deiminase 1) [SID134313246]
- mean z-score: -1.39
- z-score, replicate A: -1.88
- z-score, replicate B: -1.51
- z-score, replicate C: -0.79

C1QL4 (complement C1q like 4) [SID134326692]
- mean z-score: -0.47
- z-score, replicate A: -0.24
- z-score, replicate B: -0.32
- z-score, replicate C: -0.83

CRYZ (crystallin zeta) [SID134314586]
- mean z-score: -0.79
- z-score, replicate A: -0.35
- z-score, replicate B: -1.2
- z-score, replicate C: -0.82

WBP11 (WW domain binding protein 11) [SID134317572]
- mean z-score: 0.09
- z-score, replicate A: 0.1
- z-score, replicate B: 0.08
- z-score, replicate C: 0.08

ADGRL3 (adhesion G protein-coupled receptor L3) [SID134311091]
- mean z-score: -0.2
- z-score, replicate A: -0.27
- z-score, replicate B: -0.15
- z-score, replicate C: -0.19

MED1 (mediator complex subunit 1) [SID134310280]
- mean z-score: -0.58
- z-score, replicate A: -0.55
- z-score, replicate B: -0.48
- z-score, replicate C: -0.69

GPRC5C (G protein-coupled receptor class C group 5 member C) [SID134311051]
- mean z-score: 1.16
- z-score, replicate A: 1.18
- z-score, replicate B: 1.08
- z-score, replicate C: 1.21

TEX9 (testis expressed 9) [SID134326844]
- mean z-score: 0.36
- z-score, replicate A: 0.13
- z-score, replicate B: 0.35
- z-score, replicate C: 0.59

ZNF273 (zinc finger protein 273) [SID134319169]
- mean z-score: 0.84
- z-score, replicate A: 0.25
- z-score, replicate B: 1.02
- z-score, replicate C: 1.26

ZNF273 (zinc finger protein 273) [SID134329483]
- mean z-score: 0.95
- z-score, replicate A: 1.09
- z-score, replicate B: 0.82
- z-score, replicate C: 0.94

INTS4 (integrator complex subunit 4) [SID134319166]
- mean z-score: 2.71 (active)
- z-score, replicate A: 2.4
- z-score, replicate B: 3.5
- z-score, replicate C: 2.25

RBBP7 (RB binding protein 7, chromatin remodeling factor) [SID134315718]
- mean z-score: 1.04
- z-score, replicate A: 1.3
- z-score, replicate B: 1.24
- z-score, replicate C: 0.6
